Laboratory results published in patent US12018066, “Compositions for targeting SARS-CoV-2 spike protein receptor binding domain” (TRIAD NATIONAL SECURITY, dated 2024).

B1: E01 IgG1 (antibody, V domains shown)
VH: QVQLQQWGAGLLKPSETLSLKCAVYGGSFSGYYWGWIRQSTGKGLEWIGEINRSGSTNYNPSLKSRVTISVDTSKNQFSLKLSSVTAADTAVYYCARGGARYYYGSGSYRSTPRPYYFDYWGQGTLVTVSS
VL: SYELTQPPSVSVAPGETARITCGGDNIGRRHVHWYQQKPGQAPVLVIYDDSDRPSGIPDRFSGSNSGNTATLTIGRVEAGDEADYYCQVWGSSNDPHVFGTGTKLTVL
notes: also called E1
B2: B04 scFv (scFv)
scFv: SYVLTQPPSVSVAPGKTARITCGGNNIGIRSVHWYQQKPGQAPVLVIYYDSDRPSGIPERFSGSKSGNTATLTISRVEAGDEADYYCQVWDSSSDHPVFGGGTKLTVLSGGSTITSYNVYYTKLSSSGTQVQLVESGAEVKKPGASVKVSCKASGYTFTRYYMHWVRQAPGQGLEWMGIINPSGGTTSYAQKFQGRVTMTRDTSTSTVYMELSSLRSEDTAVYYCARSFGELTSFDYWGQGTLVTVSS
B3: B10 scFv (scFv)
scFv: QSVVTQPPSVSGAPGQRVTISCTGSSSNIGSRTVNWYQQLPGTAPKLLIYANNQRPSGVPDRFSGSKSGTSASLAISGLQSEDEADYYCAAWDDSLNGYVFGTGTKLTVLSGGSTITSYNVYYTKLSSSGTQVQLQQSGPGLVKPSQTLSLTCAISGDSVSSNSATWNWIRQSPSRGLEWLGRTYYGSKWHSDYAVSVKSRITINPDTSKNQISLHLNPVTPEDTAVYYCARGRSYAFDIWDQGTMVTVSS
B4: D04 scFv (scFv)
scFv: SYVLTQPPSVSVAPGKTARITCGGNNIGWKSVHWYQQKPGQAPVLVVYNDNDRPSGVPERFSGSNSGNTATLTISRVVAGDEADYYCQVWDSSSDHVLFGGGTKLTVLSGGSTITSYNVYYTKLSSSGTQVQLVQSGAEVKKPGSSVKVSCKASGGTFSSYAISWVRQAPGQGLEWMGGIIPIFGTANYAQKFQGRVTITADESTSTAYMELSSLRSEDTAVYYCARASGRWLQFWHYYGMDVWGQGTTVTVS
B5: D07 scFv (scFv)
scFv: SYELTQPPSVSVAPGETARMTCGGNNIGTKGVHWYQQKPGQAPVLVVYDDSDRPSGIPERFSGSNAGNTATLTISRVEAGDEADYYCQVWDSRSDQYVFGTRTKLTVLSGGSTITSYNVYYTKLSSSGAQVTLKESGPVLVKPTETLTLTCTVSGFSLSNARMGVSWIRQPPGKALEWLAHIFSNGEKSYSTSLKSRLTISKDTSKSQVVLTMTNMDPVDTATYYCARTLDYYDSSGYLVGGAFDIWGQGTMVTVSS
B6: H01 scFv (scFv)
scFv: QPGLTQPPSVSLAPGQTARITCGGNNIGSKSVHWYQQKPGQAPVLVVYDDSDRPSGIPERFSGSNAGNTATLTISRVEAGDEADYYCQVWDSRSDQYVFGTRTKLTVLSGGSTITSYNVYYTKLSSSGAQVTLKESGPVLVKPTETLTLTCTVSGFSLSNARMGVSWIRQPPGKALEWLAHIFSNGEKSYSTSLKSRLTISKDTSKSQVVLTMTNMDPVDTATYYCARTLDYYDSSGYLVGGAFDIWGQGTMVTVSS
notes: also called H1
B7: D10 scFv (scFv)
scFv: QSVVTQPPSASGSPGQTVTISCSGNSANIGGNPVNWYQQLPGTAPKLLIYSNNQRPSGVPDRFSGSKSGISASLAISGLQSEDEADYYCAAWDDSLNGVIFGGGTKLTVLSGGSTITSYNVYYTKLSSSGTQVQLVQSGAEVKKPGESLKISCKGSGYSFTSYWIGWVRQMPGKGLEWMGIIYPGDSDTRYSPSFQGQVTISADKSISTAYLQWSSLKASDTAMYYCARRHSGSYSGAFDIWGQGTMVTVSS
B8: D11 scFv (scFv)
scFv: SYELTQPPSVSVAPGQTARITCGGNNIGSKSVHWYQQKPGQAPVLVVYDDSDRPSGIPERFSGSNSGNTATLTISGTQAMDEADYYCQAWDSSTAYVFGSGTKLTVLSGGSTITSYNVYYTKLSSSGTQVQLEESGGGLVQPGGSLRLSCAASGFTFSNYAMSWVRQAPGKGLEWVSAISGSGGATFHADSVKGRFTISRDNSKNTLYLQMNSLRAEDTAVYYCARRVGYDSSGYYWSDAFDIWGQGTMVTVSS
B9: E01 scFv (scFv)
scFv: SYELTQPPSVSVAPGETARITCGGDNIGRRHVHWYQQKPGQAPVLVIYDDSDRPSGIPDRFSGSNSGNTATLTIGRVEAGDEADYYCQVWGSSNDPHVFGTGTKLTVLSGGSTITSNNVYYTKLSSSGTQVQLQQWGAGLLKPSETLSLKCAVYGGSFSGYYWGWIRQSTGKGLEWIGEINRSGSTNYNPSLKSRVTISVDTSKNQFSLKLSSVTAADTAVYYCARGGARYYYGSGSYRSTPRPYYFDYWGQGTLVTVSS
notes: also called E1
B10: F07 scFv (scFv)
scFv: SYVLTQPPSVSVAPGQTARITCGGNNIGSKSVHWYQQKPGQAPVLVVYDDSDRPSGIPERFSGSNSGNTATLIISRVEAGDEADYYCQVWDSSSVHYVFGTGTKLTVLSGGSTITSYNVYYTKLSSSGTQVQLVQSGAEVKKPGSSVRVSCKVSGYTFTGYYMHWVRQAPGQGLEWMGIINPSGGSTSYAQKFQGRVTMTRDTSTSTVYMELSSLRSEDTAVYYCARVRVGASDAFDIWGQGTMVTVSS
B11: G07 scFv (scFv)
scFv: QSVLIQPPSASGTPGQRVTISCSGSNSNFGSNSVSWYQQRPGTAPKLLIEGNNQRPSGVPERFSGSKSGTSASLAISGLQSEDEAEYSCASWDDSLNAFVFGPGTKLTVLSGGSAITSYNVYYTKLSSSGTQVQLVQSGAEVKKPGESLKISCKGSGYSFTSYWIGWVRQMPGKGLEWMGIIYPGDSDIRYSPSFQGQVTISADKSFSSAYLQWSSLKASDTAMYYCARLGATGAFDIWGQGTTVTVSS
B12: H02 scFv (scFv)
scFv: QSVVTQPPSVSAAPGQKVTISCSGSSSNIGNNYVSWYQQLPGTAPKLLIYRDTQRPSGVPDRFSGSKSGTSASLAISGLRSEDEADYYCATWDKSLSGPVFGGGTKVTVLSGGSTITSYNVYYTKLSSSGTQVQLQQSGPGLVKPSQTLSLTCAISGDSVSSNSAAWNWIRQSPSRGLEWLGRTYYRSKWYNDYAVSVKSRIIINPDTSKNQFSLQLNSVTPEDTAVYYCARQDNNPYYGLDVWGQGTTVTVSS
B13: H03 scFv (scFv)
scFv: SYELTQPPSVSVAPGQTARITCGGNNIGSKSVHWYQQKPGQAPVLVIYYDSDRPSGIPERFSGSNSGNTATLTISRVEAGDEADYYCQVWDSSSALYVFGTRTKVTVLSGGSTITSYNVYYTKLSSSGTQVQLVESGGGLVQPGRSLRLSCAASGFTFDDYAMHWVRQAPGKGLEWVSGISWNSGSIGYADSVKGRFTISRDNAKNSLYLQVNSLRAEDTAVYYCARELIVGTTSPQTDAFDIWGQGTMVTVSS
B14: H05 scFv (scFv)
scFv: SYVLTQPPSVSVAPGQTARITCGANNIGRISVHWYQQKPGQAPVLVVYDDSDRPSGIPERFSGSNFGNTATLTISRVEAGDEADYYCQVWDSYSDHVIFGGGTKLTVLSGGSTITSYNVYYTKLSSSGTQVQLVQSGAEVKKPGSSVKVSCKASGGTFSSYAISWVRQAPGQGLEWMGGIIPIFGTANYAQKFQGRVTITADESTSTAYMELSSLRSEDTAVYYCARSIFGVVIISHADGYYYGMDVWGQGTTVTVSS
notes: also called H5
B15: R26 scFv (scFv)
scFv: SYELTQPPSVSVAPGQTATITCGGKNIESKSVHWYQQKPGQAPVLVVSDDTDRASGIPERFSGSNSGGAATLTISRVEAGDEADYYCQVWDSPSDHYVFGPGTKLTVLSGGSTITSYNVYYTKLSSSGTQVQLVESGGGVVQPGRSLRLSCAASGFTFSSYAMHWVRQAPGKGLEWVAVISYDGSNKYYADSVKGRFTISRDKAKNTLYLQMNSLRGEDTAVYYCARELSYYDSSGYLRGDWYFDLWGRGTLVTVSS
B16: S01 scFv (scFv)
scFv: EIVMTQSPSSLSASVGDSVTITCQASQDISNYLNWYQQKPGKAPKLLIYDASNLETGVPSRFSGGGSGTDFTLTITSLQPEDIATYYCQQYDNFPPTFGPGTKVDIKSGGSTITSYNVYYTKLSSSDTQVQLVESGGGLVKPGGSLRLSCAASGFTVGSNYMSWVRQAPGKGLEWVSVIYSGGSTYYADSVKGRFTISRDNSKNTLYLQMNSLRAEDTAVYYCARGSSGAWYFDLWGRGTLVTVSS
notes: also called 501
B17: B04 IgG1 (antibody, V domains shown)
VH: QVQLVESGAEVKKPGASVKVSCKASGYTFTRYYMHWVRQAPGQGLEWMGIINPSGGTTSYAQKFQGRVTMTRDTSTSTVYMELSSLRSEDTAVYYCARSFGELTSFDYWGQGTLVTVSS
VL: SYVLTQPPSVSVAPGKTARITCGGNNIGIRSVHWYQQKPGQAPVLVIYYDSDRPSGIPERFSGSKSGNTATLTISRVEAGDEADYYCQVWDSSSDHPVFGGGTKLTVL
B18: F07 IgG1 (antibody, V domains shown)
VH: QVQLVQSGAEVKKPGSSVRVSCKVSGYTFTGYYMHWVRQAPGQGLEWMGIINPSGGSTSYAQKFQGRVTMTRDTSTSTVYMELSSLRSEDTAVYYCARVRVGASDAFDIWGQGTMVTVSS
VL: SYVLTQPPSVSVAPGQTARITCGGNNIGSKSVHWYQQKPGQAPVLVVYDDSDRPSGIPERFSGSNSGNTATLIISRVEAGDEADYYCQVWDSSSVHYVFGTGTKLTVL
B19: G07 IgG1 (antibody, V domains shown)
VH: QVQLVQSGAEVKKPGESLKISCKGSGYSFTSYWIGWVRQMPGKGLEWMGIIYPGDSDIRYSPSFQGQVTISADKSFSSAYLQWSSLKASDTAMYYCARLGATGAFDIWGQGTTVTVSS
VL: QSVLIQPPSASGTPGQRVTISCSGSNSNFGSNSVSWYQQRPGTAPKLLIEGNNQRPSGVPERFSGSKSGTSASLAISGLQSEDEAEYSCASWDDSLNAFVFGPGTKLTVL

These binders were tested against SARS-CoV-2 spike protein variant D614G (SARS-CoV-2, UniProt P0DTC2 16-1213).
In the case of B1, the “fold reduction of detection sensitivity, wild-type vs D614G spike” value is reported as at most 2 fold.

Each binder was assayed against T1, SARS-CoV spike protein receptor binding domain (RBD1) (SARS-CoV, UniProt P59594 306-527).
B2: no binding (tested: 20 nM).
B3: no binding (tested: 20 nM).
B4: no binding (tested: 20 nM).
B5: no binding (tested: 20 nM).
B6: no binding (tested: 20 nM).
B7: no binding (tested: 20 nM).
B8: no binding (tested: 20 nM).
B9: no binding (tested: 20 nM).
B10: no binding (tested: 20 nM).
B11: no binding (tested: 20 nM).
B12: no binding (tested: 20 nM).
B13: no binding (tested: 20 nM).
B14: no binding (tested: 20 nM).
B15: no binding (tested: 20 nM).
B16: no binding (tested: 20 nM).

Molecular target: T1, SARS-CoV spike protein receptor binding …
Remark: another data set of the same source
B17: no binding (tested: 100 nM).
B1: no binding (tested: 100 nM).
B18: no binding (tested: 100 nM).
B19: no binding (tested: 100 nM).
